Pooled drug test results. Numbers come from NIAID ChemDB, via PubChem.

Common to all: growth or infection tests; agent: HIV-1; measure: EC50

ECn: concentration that inhibits the pathogen or its effect by n%.

smiles,strain,cell line,mutations,read by,result
CCc1cn([C@H]2C=C[C@@H](OCP(=O)(O)O)O2)c(=O)nc1N,IIIB,CEM,-,cytopathic effect / XTT,>100 µg/mL
Brc1ccc(-c2nc(-c3nnc(C45CCC6CC(CC4C6)C5)o3)cs2)cc1,IIIB,MT-4,-,MTT,>110 µM
Cn1c(=O)cnn([C@H]2C[C@H](O)[C@@H](CO)S2)c1=O,IIIB,CEM,-,syncytia,>100 µM
CCc1c(C(=O)c2cc(C)cc(C)c2)n(CC2CC=CC2)c(=O)[nH]c1=O,IIIB SJ-3366 P4 (RT Y181C),-,RT-Y181C,-,0.025 µM
O=C1/C(=C/c2cc(O)c(O)c(O)c2)CC(C(=O)O)C/C1=C\c1cc(O)c(O)c(O)c1,-,MT-4,-,cytopathic effect / MTT,4 µM
O=C(Nc1ccc(Cl)c(F)c1)C(=O)NC1CCNC2(CCCCC2)C1,YTA,TZM-bl,-,single cycle,27 µM
O=C1C(O)=C(C2=C(C3=C(O)C(=O)c4ccccc4C3=O)C(=O)c3ccccc3C2=O)C(=O)c2ccccc21,IIIB,CEM,-,cytopathic effect / MTT,11 µM
Cc1nc(C(C)O)c(-c2ccc3c(c2)CCN(c2nccc(-c4cccnc4)n2)C3)c(N2CCC(C)(C)CC2)c1[C@H](OC(C)(C)C)C(=O)O,NL4-3,MT-2,-,luciferase,0.01 µM
COC1=C(C2=C(Br)C(=O)c3ccccc3C2=O)C(=O)c2ccccc2C1=O,IIIB,CEM,-,cytopathic effect / MTT,1.8 µM
Cc1cn([C@H]2C=C[C@@H](OCP(=O)(O)O)O2)c(=O)[nH]c1=O,IIIB,CEM,-,cytopathic effect / XTT,29 µg/mL
O=C(Nc1ccc(S(=O)(=O)Nc2cccc(Cl)c2F)cc1)c1cc(O)c(O)c(O)c1,-,MT-4,-,-,>25 µM
Cc1occc1C(=S)Nc1ccc(Cl)c(C(=O)OCC(C)C)c1,IIIB,CEM + CEM-SS,-,cytopathic effect / XTT,0.07 µM
NCCN1CCC(NC(=O)C(=O)Nc2ccc(Cl)cc2)CC12CCCCC2,YTA,TZM-bl,-,single cycle,11 µM
Cc1occc1C(=S)Nc1ccc(Cl)c(/C=N/OC(C)(C)C)c1,RF,CEM + CEM-SS,-,cytopathic effect / XTT,0.049 µM
CCCCn1c(=O)cnn([C@H]2C[C@H](O)[C@@H](CO)S2)c1=O,IIIB,CEM,-,syncytia,>20 µM
CC(C)=CCOc1cc(Nc2ccccn2)ccc1C#N,IIIB,MT-2,-,cytopathic effect / MTT,>0.29 µM
COc1ccc2c(c1)C(=O)C(Cl)=C(C1=C(O)c3ccccc3C(=O)C1=O)C2=O,IIIB,CEM,-,cytopathic effect / MTT,5.3 µM
OC[C@H]1C[C@@H](n2cnc3c(Cl)ncnc32)C2CC21,-,-,-,-,>100 µg/mL
CCc1cn([C@H]2C=C[C@@H](OCP(=O)(O)O)O2)c(=O)[nH]c1=O,IIIB,CEM,-,cytopathic effect / XTT,>100 µg/mL
CCc1c(Cc2ccccc2)nc(SCC(=O)c2ccco2)[nH]c1=O,IIIB,C8166,-,syncytia,0.16 µM
Cc1nc(NCCCN(C)C)c(-c2ccc3c(c2)CCN(c2ncnc4c2oc2ccccc24)C3)c(N2CCC(C)(C)CC2)c1[C@H](OC(C)(C)C)C(=O)O,NL4-3,MT-2,-,luciferase,0.01 µM
CC=CCOc1cc(NC(=S)c2ccoc2C)ccc1OC,NL4-3,CEM + CEM-SS,RT-Y181C,cytopathic effect / XTT,1.4 µM
O=C(c1ccccc1Cl)C(O)NC(=S)Nc1ccccn1,IIIB,MT-4,-,-,118 µM
O=C1/C(=C/c2cc(O)c(O)c(O)c2)CSC/C1=C\c1cc(O)c(O)c(O)c1,-,MT-4,-,cytopathic effect / MTT,20 µM
Cc1nc(CN2CCC3(CCC3)CC2)c(-c2ccc3c(c2)CCN(c2nccc(-c4cccnc4)n2)C3)c(N2CCC(C)(C)CC2)c1[C@H](OC(C)(C)C)C(=O)O,NL4-3,MT-2,-,luciferase,0.01 µM
COc1ccc(S(=O)(=O)N(CC(C)C)C[C@@H](O)[C@@H]2Cc3ccc(cc3)OCCCCCCCc3c(O)cccc3C(=O)N2)cc1,LAI,MT-2,-,MTT,0.8 µM
Cc1occc1C(=S)Nc1ccc(Cl)c(C(=O)OCC2CC2)c1,NL4-3,CEM + CEM-SS,RT-V108I,cytopathic effect / XTT,0.08 µM
CCCOc1nc(N)nc2c1ncn2[C@@H]1C[C@H](CO)C2CC21,-,-,-,-,>100 µg/mL
N#Cc1ccc(Nc2nccs2)cc1OCc1ccoc1,IIIB,MT-2,-,cytopathic effect / MTT,>4 µM
O=C1/C(=C/c2cc(O)c(O)c(O)c2)CNC/C1=C\c1cc(O)c(O)c(O)c1,-,MT-4,-,cytopathic effect / MTT,22 µM
O=C1C(Cl)=C(C2=C(Cl)C(=O)c3ccccc3C2=O)C(=O)c2ccccc21,IIIB,CEM,-,cytopathic effect / MTT,3.3 µM
Nc1nc(=O)n([C@H]2C=C[C@@H](OCP(=O)(O)O)O2)cc1I,IIIB,CEM,-,cytopathic effect / XTT,>100 µg/mL
CCn1c(=O)cnn([C@H]2C[C@H](O)[C@@H](CO)S2)c1=O,IIIB,CEM,-,syncytia,>100 µM
CC(=O)Oc1ccc(/C=C/C(=O)Nc2ccc(S(=O)(=O)Nc3cc(C)cc(C)c3)cc2)cc1OC(C)=O,-,MT-4,-,-,>13 µM
COc1ccc2c(c1)C(O)=C(C1=C(I)C(=O)c3ccccc3C1=O)C(=O)C2=O,IIIB,CEM,-,cytopathic effect / MTT,3.7 µM
OC(/C=C/c1ccc(Cl)c(Cl)c1)/C=C/c1ccc(Cl)c(Cl)c1,-,MT-4,-,cytopathic effect / MTT,>121 µM
Nc1ncnc2c1ncn2[C@H]1C=C[C@@H](OCP(=O)(O)O)O1,LAI,CEM-F + CEM,-,ELISA,45 µM
Cc1ccc(C)n1-c1ccc(C(=O)O)c(O)c1,RF X4 CLADE B,MT-2,-,p24,1.69 µM
CN1N=C(N)c2cn(C3C=CC(CO)O3)c3ncnc1c23,IIIB,CEM + CEM-SS,-,RT activity,100 µM
Nc1nc2c(ncn2[C@@H]2C[C@H](CO)C3CC32)c(=O)[nH]1,-,-,-,-,>100 µg/mL
CCc1c(Cc2ccccc2)nc(SCC(=O)c2ccc(OC)cc2)[nH]c1=O,IIIB,C8166,-,syncytia,0.048 µM
N#Cc1ccc(Nc2nccs2)cc1OCc1ccsc1,IIIB,MT-2,-,cytopathic effect / MTT,>1.1 µM
Cc1cccc(-c2nc(-c3nnc(C45CCC6CC(CC4C6)C5)o3)cs2)c1,IIIB,MT-4,-,MTT,>125 µM
C=CCO/N=C/c1cc(NC(=S)c2ccoc2C)ccc1Cl,NL4-3,CEM + CEM-SS,RT-V108I,cytopathic effect / XTT,0.1 µM
COc1ccc2c(c1)C(=O)C(C1=C(Cl)C(=O)c3ccccc3C1=O)=C(Cl)C2=O,IIIB,CEM,-,cytopathic effect / MTT,3.4 µM
Cc1nc(C(C)(C)O)c(-c2ccc3c(c2)CCN(c2nccc(-c4cccnc4)n2)C3)c(N2CCC(C)(C)CC2)c1[C@H](OC(C)(C)C)C(=O)O,NL4-3,MT-2,-,luciferase,0.01 µM
COc1ccc(S(=O)(=O)N(CC(C)C)C[C@@H](O)[C@@H]2Cc3ccc(cc3)OCCCCCCc3c(O)cccc3C(=O)N2)cc1,LAI,MT-2,-,MTT,0.31 µM
NC(N)=NCCCCC(=O)NCCN1CCC(NC(=O)C(=O)Nc2ccc(Cl)cc2)CC12CCCCC2,YTA,TZM-bl,-,single cycle,2.8 µM
COc1ccc(C(=O)CSc2nc(Cc3ccccc3)c(C)c(=O)[nH]2)cc1,IIIB,C8166,-,syncytia,1.47 µM
Cc1occc1C(=S)Nc1ccc(Cl)c(C(=O)OC(C)C)c1,NL4-3,CEM + CEM-SS,-,cytopathic effect / XTT,0.03 µM
Brc1cccc(-c2nc(-c3nnc(C45CCC6CC(CC4C6)C5)o3)cs2)c1,IIIB,MT-4,-,MTT,>125 µM
NCCN(CCN)CCN1CCC(NC(=O)C(=O)Nc2ccc(Cl)cc2)CC12CCCCC2,YTA,TZM-bl,-,single cycle,6 µM
COC1=C(C2=C(I)C(=O)c3ccccc3C2=O)C(=O)c2ccc3c(c2C1=O)C=CC(C)(C)O3,IIIB,CEM,-,cytopathic effect / MTT,2.7 µM
O=C1C(=Cc2cc(O)c(O)c(O)c2)C(=O)c2ccccc21,-,MT-4,-,cytopathic effect / MTT,>19 µM
CC(C)=CCOc1cc(Nc2nccs2)ccc1C(=O)O,IIIB,MT-2,-,cytopathic effect / MTT,>17 µM
O=C(Nc1ccc2c(c1)OCO2)C(=O)NC1CCNC2(CCCCC2)C1,YTA,TZM-bl,-,single cycle,>30 µM
O=C(c1ccc(Cl)cc1)C(O)NC(=S)Nc1ccccn1,IIIB,MT-4,-,-,166 µM
Cc1ccc(-c2nc(-c3nnc(C45CCC6CC(CC4C6)C5)o3)cs2)cc1,IIIB,MT-4,-,MTT,>105.7 µM
CCN1C/C(=C\c2cc(O)c(O)c(O)c2)C(=O)/C(=C/c2cc(O)c(O)c(O)c2)C1,-,MT-4,-,cytopathic effect / MTT,≥40 µM
O=c1[nH]c(=S)cnn1[C@H]1C[C@H](O)[C@@H](CO)S1,IIIB,CEM,-,syncytia,>100 µM
O=C(/C=C/c1ccc(O)c(O)c1)Nc1ccc(S(=O)(=O)Nc2ccc(Br)cc2)cc1,-,MT-4,-,-,>15 µM
Fc1ccc(-c2nc(-c3nnc(C45CCC6CC(CC4C6)C5)o3)cs2)cc1,IIIB,MT-4,-,MTT,>75.2 µM
CCc1c(Cc2cccc3ccccc23)nc(SCC(=O)c2cccs2)[nH]c1=O,IIIB,C8166,-,syncytia,0.62 µM
Cc1cn([C@H]2C[C@H](N=[N+]=[N-])[C@@H](CO)O2)c(=O)[nH]c1=O,LAV,PBMC,-,p24 / ELISA,0.072 µM
Nc1ccn([C@H]2CO[C@@H](CO)S2)c(=O)n1,NL4-3,PBMC,-,p24,7.2 µM
CC(C)=CCOc1cc(Nc2nccc(CO)n2)ccc1Cl,IIIB,MT-2,-,cytopathic effect / MTT,>0.22 µM

Neighbouring rows are from separate reports. An empty or dashed field is not shown.